This note sets out measurements from patent publication US20020013478A1, “Calanolide analogues and methods of their use” (Sarawak Medichem Pharmaceuticals,Inc., priority 1994, published 2002).

Marks after values point to notes of the source that are not given here.

The test system of data set [1] is VZV. Put plainly: VZV plaque reduction assay in human foreskin fibroblast cells. The data set is classed as cell-based, varicella zoster virus. The following applies: IC50/EC50. The procedure:
Two days prior to use, HFF cells are plated into six-well plates and incubated at 37° C. with 5% CO2 and 90% humidity. On the date of assay, the drug is made up at twice the desired concentration in 2x MEM and then serially diluted 1:5 in 2x MEM using six concentrations of drug. The initial starting concentration is usually 200 gg/mL down to 0.06 μg/mL. The virus to be used is diluted in MEM containing 10% FBS to a desired concentration which will give 20-30 plaques per well. The media is then aspirated from the wells and 0.2 mL of virus is added to each well in duplicate with 0.2 mL of media being added to drug toxicity wells. The plates are then incubated for one hour with shaking every fifteen minutes. After the incubation period, an equal amount of 1% agarose was added to an equal volume of each drug dilution. This will give final drug concentrations beginning with 100 μg/mL and ending with 0.03 μg/mL and a final agarose overlay concentration of 0.5%. The drug agarose mixture is applied to each well in 2 mL volume and the plates then incubated for three days, after which the cells were stained with a 1.5% solution of neutral red. At the end of 4-6hr incubation period, the stain is aspirated, and plaques counted using a stereomicroscope at lOx magnification.
The procedure is essentially the same as for the HSV plaque assay described above with two exceptions:
1. After addition of the drug, the plates are incubated for ten days.
2. On days three and six, an additional 1 mL overlay with equal amounts of 2x MEM and 1% agarose are added.
A general note: Plaques are areas of infected cells; plaque reduction assays count them against a control.

Data set [2] relates to HCMV. Put plainly: HCMV semi-automated CPE-inhibition assay in human foreskin fibroblast cells. The data set is classed as cell-based, human cytomegalovirus. The following applies: IC50/EC50.
Data set [3] deals with EBV. Put plainly: EBV assay: superinfection of Raji or Daudi cells with P3HR-1, immunofluorescence for EA and VCA. The data set is classed as cell-based, Epstein-Barr virus. Conditions: IC50/EC50. The source says: There are two prototypes of infectious EBV. One is exemplified by the virus derived from supernatant fluids of the P3HR-1cell line. This cell line produces nontransforming virus that causes the production of early antigen (EA) after primary infection or superinfection of B cell lines. The other prototype is exemplified by the B-95-8 virus. This virus immortalized cord blood lymphocytes and induced tumors in marmosets.
The virus used in our assays is P3HR-1.
Ramos is an exceptional B cell line derived from Burkitt's lymphoma tumor but containing no detectable EBV genome copies and is EBNA negative. Ramos/AW was obtained by in vitro infection of Ramos with the P3HR-1 virus and contains one resident EBV genome copy/cell. Raji is a Burkitt's lymphoma cell line containing 60 EBV genomes/cell, and will be the primary cell used for screening antiviral activity against EBV EA expression. Daudi is a low level producer that contains 152 EBV genome copies/cell. It spontaneously expresses EBV EA in 0.25%-0.5% of the cells. It will be used in follow-up studies to confirm activity. These cell lines respond to superinfection by EBV by expressing EA(D), EA(R), and VCA. All cell lines are maintained in RPMI-1640 medium supplemented by 10% FCS, L-glutamine and 100 μg/mL gentamicin. The cultures are fed twice weekly and the cell concentration adjusted to 3×10^5/mL. The cells are kept at 37° C. in a humidified atmosphere with 5% CO2.
Cells are infected with the P3HR-1 strain of EBV and the drugs to be tested are added after adsorption (45 minutes at 37° C.) and washing of the cell cultures. The cultures are incubated for two days in complete medium to allow viral gene expression. Following the 48 hr incubation period, the number of cells of each sample are counted and smears made. Monoclonal antibodies to the different EA components and VCA are then added to the cells incubated and washed. This is followed by a fluorescein conjugated rabbit anti-mouse Ig antibody; and the number of fluorescence positive cells in the smears are counted. The total number of cells in the cultures positive for EA or VCA are then calculated and compared.

In data set [4] the test system is HBV. Put plainly: HBV replication in cultures of 2.2.15 cells, extracellular HBV virion DNA (primary assay). The following applies: for HBV SI: IC50/EC50; for HBV Virion SI: SI is IC50/EC90.
Data set [5] deals with HIV-1. Conditions: IC50/EC50.
The test system of data set [6] is HBV RI. Put plainly: HBV replication in 2.2.15 cells, intracellular DNA replication intermediates (secondary assay). The following applies: SI is IC50/EC90.
For data set [7], the system named is HCMV isolates Towne, AD169, E. Mann, Coffman, C9208. Put plainly: Anti-CMV plaque reduction assay against various laboratory and clinical isolates (Example 40). The data set is classed as cell-based, human cytomegalovirus. Conditions: MTC/EC50. On the procedure:
On the date of assay, the drug is made up at twice the desired concentration in 2x MEM and then serially diluted 1:5 in 2x MEM using six concentrations of drug. The initial starting concentration is usually 200 gg/mL down to 0.06 μg/mL. […] The media is then aspirated from the wells and 0.2 mL of virus is added to each well in duplicate with 0.2 mL of media being added to drug toxicity wells. The plates are then incubated for one hour with shaking every fifteen minutes. […] This will give final drug concentrations beginning with 100 μg/mL and ending with 0.03 μg/mL and a final agarose overlay concentration of 0.5%. The drug agarose mixture is applied to each well in 2 mL volume and the plates then incubated for three days, after which the cells were stained with a 1.5% solution of neutral red. At the end of 4-6hr incubation period, the stain is aspirated, and plaques counted using a stereomicroscope at lOx magnification. The procedure again is nearly the same as for HSV with a few minor changes. […] The assay is incubated for 14 days with the additional 1 mL overlays being applied on days four and eight. The procedure for the liquid overlay plaque assay is similar to that using the agarose overlay. The procedure for adding the virus is the same as for the regular plaque assay. The drugs are made up in a concentration to be used in MEM with 2% FBS. The drugs are not made up at 2x concentration as in the previous assays but are made up at the desired concentration. For HSV-1 and HSV-2 assays, an antibody preparation obtained from Baxter Health Care Corporation is diluted 1:500 and added to the media that the drug is diluted in. For CMV and VZV, no antibody in the overlay is utilized. For the CMV assay, additional medium without new drug is added on day five and allowed to incubate for a total of 10 days. For VZV, additional medium is added on day five and incubated for a total of 10 days. At the end of the incubation period for all of the assays, 2 mL of 1:10 dilution of stock neutral is added to each well incubated for six hours. The liquid is then aspirated off and plaques enumerated using a stereomicroscope. Five calanolide analogues, prepared as described above, were further evaluated for their anti-HCMV activity in plaque reduction assay against various laboratory and clinical isolates (Towne, AD 169, E. Mann, Coffinan, and […]).

As for `CCCc1cc(=O)oc2c3c(c4c(c12)OC(C)(C)CC4)OC(C)C(C)C3=O` (racemic) [(±)-18a, (±)-10,11-trans4-Propyl-7,8,10,11-tetrahydro-6,6,10,11-tetramethyl-2H,6H,12H-benzo [1,2-b:3,4-b′5,6-b″]tripyran-2,12-dione], the “VZV SI” value in data set [1] is 2.2. Also, the “HCMV SI” value in data set [2] is listed as less than 5. For the same compound, in data set [3], the “EBV SI” value is more than 2. The “HBV SI” value in data set [4] was less than 9. The compound also showed a TI in data set [5] of 4.

Consider `CCCc1cc(=O)oc2c3c(c4c(c12)OC(C)(C)C=C4)OC(C)C(C)(C)C3=O` (racemic) [(±)-15a, (±)-10,11-Dihydro-6,6,10,11,11-pentamethyl-4-propyl-2H,6H, 12H-benzo[1,2-b:3,4-b′:5,6-b″]tripyran-2,12-dione], for which the “HCMV SI” value in data set [2] is on record as less than 1. Further, the “HBV RI SI” value in data set [6] was less than 60. Also, in data set [4], the “HBV SI” value is on record as 993^f and the “HBV Virion SI” value worked out at 89.

On to `CCCc1cc(=O)oc2c3c(c4c(c12)OC(C)(C)C=C4)OC(C)C(C)C3=O` (racemic) [(±)-7, 10,11-trans-dihydro-4-propyl-6,6,10,11-tetramethyl-2H,6H,12H-benzo[1,2-b:3,4-b′:5,6-b″]-tripyran-2,12-dione], for which the TI in data set [5] was 16; in data set [7] (isolate AD169), 32; in data set [7] (isolate C9208) it was 14; in data set [7] (isolate Coffman), more than 30; in data set [7] (isolate E. Mann) it was 32; in data set [7] (isolate Towne), more than 30.

Regarding `CCCc1cc(=O)oc2c3c(c4c(c12)OC(C)(C)C=C4)OC(C)C(C)(C)C3O` (racemic) [(±)-16b, (±)-10,12-trans-10,11-dihydro-12-hydroxy-6,6,10,11,11-pentamethyl-4-propyl-2H,6H,12H-benzo [1,2-b:3,4-b′:5,6-b″]tripyran-2-one], in data set [5], the TI worked out at 7.

Turning to `CCCc1cc(=O)oc2c3c(c4c(c12)OC(C)(C)C=C4)OC(C)C(C)C3=O` (racemic) [(±)-7a], the “VZV SI” value in data set [1] turned out to be 2.4. Further, in data set [2], the “HCMV SI” value is 132. In addition, the “EBV SI” value in data set [3] stood at 1. In data set [4], the “HBV SI” value is reported as 1. Also, the TI in data set [5] came to 4; in data set [7] (isolate AD169), 3.2; in data set [7] (isolate C9208) it was 3.8; in data set [7] (isolate Coffman), 3.2; in data set [7] (isolate E. Mann), 3.2; in data set [7] (isolate Towne), 3.2.

In the case of `CCCc1cc(=O)oc2c3c(c4c(c12)OC(C)(C)C=C4)OCC(C)C3=O` (racemic) [(±)-15f], the “VZV SI” value in data set [1] was less than 3. Moreover, the “HCMV SI” value in data set [2] was less than 1. Also, the “EBV SI” value in data set [3] is reported as less than 1. Besides, the “HBV RI SI” value in data set [6] amounted to 20. Moreover, in data set [4], the “HBV SI” value was 400^e and the “HBV Virion SI” value came to 61.

For the compound `CCCc1cc(=O)oc2c(C(=O)[C@@H](C)[C@H](C)O)c(O)c3c(c12)OC(C)(C)C=C3` (relative stereo) [(±)-8b, 6,6-Dimethyl-9-hydroxy-10-12(S*)-methyl-3(S*)-hydroxybutyro]4-propyl-2H,6H-benzo[1,2-b:3,4-b′]dipyran-2-one], in data set [5], the TI stood at 9.

`CCCc1cc(=O)oc2c3c(c4c(c12)OC(C)(C)C=C4)OC(C)(C)C(C)C3O` (racemic) [(±)-16d, (±)-11,12-trans-10,11-dihydro-12-hydroxy-6,6,10,10,11-pentamethyl-4-propyl-2H,6H,12H-benzo [1,2-b:3,4-b′:5,6-b″]tripyran-2-one] registered a TI in data set [5] of 4.

Turning to `CCCc1cc(=O)oc2c3c(c4c(c12)OC(C)(C)C=C4)O[C@H](C)[C@@H](C)C3=O` [(+)-7, 10(R),11(R)-trans-Dihydro6,6,10,11-tetramethyl-4-propyl-2H,6H,12H-benzo [1,2-b:3,4-b′:5,6-b″]tripyran-2,12-dione], the “VZV SI” value in data set [1] turned out to be 1.8. The “HCMV SI” value in data set [2] amounted to 435. Besides, in data set [3], the “EBV SI” value is more than 53. Also, the “HBV SI” value in data set [4] is listed as 8. Also, the TI was 107 in data set [5]; 32 in data set [7] (isolate AD169); more than 20 in data set [7] (isolate C9208); more than 21 in data set [7] (isolate Coffman); 22 in data set [7] (isolate E. Mann); more than 20 in data set [7] (isolate Towne).
